Measurements as given in patent US20010011515A1, “Anticorrosive agent” (NEC Corporation, priority 2000, published 2001).

System: liquid culture medium containing a particular microorganism
Experiment: Biodegradability according to the OECD method
Details: after 28 days, stored at 25° C.

SMILES	Biodegradability (decomposition percent rating)
c1ccc2[nH]nnc2c1 [Benztriazole, reference compound]	x (Biodegradability is less than 5%.)
NC(N)=O [Urea]	⊚ (Biodegradability is 80% or more.)
